Potato spindle tuber viroid, loop 15: variant abundance in plants

Values reported by Wu et al. 2024 (doi:10.1371/journal.ppat.1012142).

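Three N. benthamiana plants were inoculated with the whole mutant pool. Samples came from the inoculated region at 5 days, the leaf margin at 10 and upper systemic leaves at 12.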

PSTVd intermediate strain, loop 15: wild type GGAAACCGCUACUAC, pool pattern GGAAACCGNNNNNNC; upper and lower strand joined, each 5' to 3', the first 7 letters being the upper strand, closing pairs included.

Values are reads per thousand in the sample; higher means more abundant, 0 means not found. Each value is the mean of three plants. "Pool" is the share in the plasmid pool used as inoculum, on the same scale. The inoculated region was read from the minus strand, the other sites from the plus strand. IR is the inoculated region, LM the leaf margin, Sys the systemic leaves.

GGAAACCGGACAGGC (pool 0.288) read IR 0.0783; LM 0.00668; Sys 0.
GGAAACCGUUCGACC (pool 0.208) read IR 0.0768; LM 0.00668; Sys 0.00537.
GGAAACCGAAGCCCC (pool 0.128) read IR 0.111; LM 0.00742; Sys 0.
GGAAACCGUGAUUUC (pool 0.240) read IR 0.288; LM 0.139; Sys 0.0642.
GGAAACCGUUCUUGC (pool 0.224) read IR 0.365; LM 0.109; Sys 0.0107.
GGAAACCGAGGAUAC (pool 0.208) read IR 0.470; LM 0.0934; Sys 0.0774.
GGAAACCGAUGGGUC (pool 0.208) read IR 0.0903; LM 0.0141; Sys 0.00537.
GGAAACCGGGGAGUC (pool 0.304) read IR 0.0966; LM 0.0121; Sys 0.00537.
GGAAACCGGUCGUAC (pool 0.192) read IR 0.335; LM 0.140; Sys 0.0718.
GGAAACCGGAAACAC (pool 0.192) read IR 0.109; LM 0.0108; Sys 0.
GGAAACCGGGCCAUC (pool 0.192) read IR 0.0731; LM 0.0148; Sys 0.
GGAAACCGCUACCAC (pool 0.480) read IR 0.520; LM 0.527; Sys 0.282.
GGAAACCGCCGGCGC (pool 0.272) read IR 0.142; LM 0.00742; Sys 0.00504.
GGAAACCGCCAUCAC (pool 0.304) read IR 0.356; LM 0.126; Sys 0.0698.
GGAAACCGAUCUACC (pool 0.144) read IR 0.120; LM 0.0121; Sys 0.00537.
GGAAACCGGGGUAAC (pool 0.208) read IR 0.0913; LM 0.420; Sys 0.00504.
GGAAACCGUCUGACC (pool 0.224) read IR 0.142; LM 0.0175; Sys 0.
GGAAACCGACAUGAC (pool 0.368) read IR 0.0797; LM 0; Sys 0.
GGAAACCGUCAUCUC (pool 0.304) read IR 0.402; LM 0.0972; Sys 0.0215.
GGAAACCGGCAUCUC (pool 0.224) read IR 0.166; LM 0; Sys 0.00537.
GGAAACCGCGCCAUC (pool 0.208) read IR 0.0983; LM 0; Sys 0.
GGAAACCGAGGUCAC (pool 0.240) read IR 0.115; LM 0.0134; Sys 0.
GGAAACCGAGGACGC (pool 0.240) read IR 0.121; LM 0.0141; Sys 0.
GGAAACCGUAAAUAC (pool 0.320) read IR 0.315; LM 0.133; Sys 0.0537.
GGAAACCGCUAGCGC (pool 0.192) read IR 0.0711; LM 0.0128; Sys 0.
GGAAACCGUAGGUCC (pool 0.224) read IR 0.0547; LM 0.0200; Sys 0.
GGAAACCGCACGCUC (pool 0.224) read IR 0.0669; LM 0.0208; Sys 0.
GGAAACCGUUAAGGC (pool 0.224) read IR 0.104; LM 0.0121; Sys 0.
GGAAACCGGCAACAC (pool 0.144) read IR 0.134; LM 0; Sys 0.
GGAAACCGGGAUUGC (pool 0.256) read IR 0.0922; LM 0; Sys 0.
GGAAACCGUUUCAUC (pool 0.208) read IR 0.0764; LM 0.00539; Sys 0.
GGAAACCGACGCAUC (pool 0.240) read IR 0.0965; LM 0; Sys 0.00537.
GGAAACCGCUCAGGC (pool 0.352) read IR 0.123; LM 0.00539; Sys 0.
GGAAACCGUUUCGUC (pool 0.288) read IR 0.135; LM 0; Sys 0.00537.
GGAAACCGCGCCAAC (pool 0.192) read IR 0.123; LM 0.00539; Sys 0.
GGAAACCGGGCUAGC (pool 0.224) read IR 0.0847; LM 0.0187; Sys 0.
GGAAACCGACCUCCC (pool 0.352) read IR 0.0890; LM 0.00539; Sys 0.00537.
GGAAACCGAGUUUCC (pool 0.288) read IR 0.126; LM 0.0262; Sys 0.
GGAAACCGAACAUCC (pool 0.128) read IR 0.0814; LM 0.00539; Sys 0.

4 of these entries, quoted again:

| sequence | pool | IR | LM | Sys |
|---|---|---|---|---|
| GGAAACCGACAUGAC | 0.368 | 0.0797 | 0 | 0 |
| GGAAACCGGCAACAC | 0.144 | 0.134 | 0 | 0 |
| GGAAACCGAAGCCCC | 0.128 | 0.111 | 0.00742 | 0 |
| GGAAACCGAUGGGUC | 0.208 | 0.0903 | 0.0141 | 0.00537 |

Sequences that differ at fixed positions probably stem from PCR or sequencing errors, and defective variants can be carried along by functional ones. Samples held 43,870 to 66,106 reads, so the smallest values rest on one or two reads. Wild type was 33.9 per thousand in the pool and the most common sequence in every sample (inoculated region 202, 200, 159; leaf margin 724, 746, 710; systemic leaves 856, 883, 880).